Among the data in patent US20240254204A1 are pseudovirus neutralization, potency against the three mAbs of the study values, retold here.

This assay has as its target spikes of the eight spike-pseudotyped reporter viruses. Kind of assay: cell-based or functional assay.

S2X259 (VirBiotech) (antibody) came in with a pseudovirus neutralization, potency against the three mAbs of the study of 10 fold.
